Experimental data: PubChem BioAssay AID504761 (Drosophila RNAi Screening Center, 2011)
In all, the deposit lists about 22,000 reagents; shown is an unselected part of those with a known target gene and a result. Over the whole deposit, 116 (0.52%) got an active call. 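Calls depend on retest data that are not deposited; infection was ranked per plate without normalising between plates; the unit of the infection score is not given.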 The raw values are shown without normalisation. Not all columns of the deposit are shown. No sequences are given here. Not stated in the record: the amount of reagent, the time to read-out.

Screen: 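Genome-wide fly cell screen for genes dengue virus requires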 (primary screen)
Cell system: D.Mel-2 cells from Drosophila
Knock-down reagent: long dsRNA against Drosophila genes
Challenge: infection with dengue virus type 2; dose and infection time not stated
Read-out: 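Cells stained for dengue envelope protein and imaged; percent of infected cells per well on duplicate plates, ranked by infection, with stained nuclei counted for cell number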
Direction: infection score: higher = more virus-infected cells; cell count: higher = more cells in the well
Hit rule: 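Very low infection ranking in both replicate wells (chance probability at most 0.065), then a retest showing infection dropped 1.5-fold or more at p below 0.05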
Meaning of the calls: active = confirmed: knock-down lowers infection; inactive = not picked or not confirmed

The opening 3 records, ahead of the listing:
| predicted target | PubChem SID | infection score, replicate 1 | infection score, replicate 2 | cell count, replicate 1 | Outcome |
| --- | --- | --- | --- | --- | --- |
| dgt5 (dim gamma-tubulin 5) | SID104187072 | 3.72 | 7.76 | 5778 | inactive |
| dgt5 (dim gamma-tubulin 5) | SID104207923 | 16.3 | 15.8 | 4871 | inactive |
| CG18568 | SID104186560 | 6.13 | 11.8 | 5642 | inactive |

The listing, from the first entry:
| predicted target | PubChem SID | infection score, replicate 1 | infection score, replicate 2 | cell count, replicate 1 | Outcome |
| --- | --- | --- | --- | --- | --- |
| dgt5 (dim gamma-tubulin 5) | SID104187072 | 3.72 | 7.76 | 5778 | inactive |
| dgt5 (dim gamma-tubulin 5) | SID104207923 | 16.3 | 15.8 | 4871 | inactive |
| CG18568 | SID104186560 | 6.13 | 11.8 | 5642 | inactive |
| CG18568 | SID104203257 | 5.24 | 2.95 | 6941 | inactive |
| CG12522 | SID104188880 | 0.52 | 0.55 | 6295 | inactive |
| CG12522 | SID104203918 | 2.39 | 4.04 | 6355 | inactive |
| BHD (Birt-Hogg-Dube) | SID104190809 | 5.32 | 4.23 | 6035 | inactive |
| BHD (Birt-Hogg-Dube) | SID104202192 | 2.29 | 28.6 | 5673 | inactive |
| BHD (Birt-Hogg-Dube) | SID104206013 | 13 | 19.1 | 4928 | inactive |
| CG32971 | SID104181164 | 4.53 | 1.63 | 5370 | inactive |
| Pgd (Phosphogluconate dehydrogenase) | SID104198489 | 1.36 | 17.1 | 6539 | inactive |
| Mical (Molecule interacting with CasL) | SID104194141 | 6.46 | 2.16 | 6807 | inactive |
| Mical (Molecule interacting with CasL) | SID104194143 | 11.2 | 6.53 | 5922 | inactive |
| Mical (Molecule interacting with CasL) | SID104195157 | 4.29 | 4.5 | 6521 | inactive |
| Mical (Molecule interacting with CasL) | SID104195158 | 10.3 | 4.7 | 6367 | inactive |
| CG17560 | SID104195034 | 1.14 | 10.5 | 6468 | inactive |
| CG13484 | SID104189818 | 0.82 | 0.33 | 6080 | inactive |
| CG13484 | SID104205207 | 1.47 | 6.45 | 5842 | inactive |
| Panx (Panoramix) | SID104184355 | 4.85 | 2.06 | 6848 | inactive |
| Sf3a1 (Splicing factor 3a subunit 1) | SID104194958 | 2.74 | 22.4 | 693 | inactive |
| CG1827 | SID104186511 | 7.65 | 4.29 | 5412 | inactive |
| Hex-t2 (Hexokinase testis 2) | SID104201963 | 3.72 | 7.44 | 5650 | inactive |
| Hex-t2 (Hexokinase testis 2) | SID104206791 | 17 | 8.01 | 5188 | inactive |
| TyrRII (Tyramine receptor II) | SID104194942 | 0.85 | 1.92 | 6365 | inactive |
| TyrRII (Tyramine receptor II) | SID104203800 | 1.45 | 8.68 | 5875 | inactive |
| CG6628 | SID104190471 | 2.44 | 5.29 | 5661 | inactive |
| Cka (Connector of kinase to AP-1) | SID104183268 | 1.66 | 7.57 | 6213 | inactive |
| Cka (Connector of kinase to AP-1) | SID104202217 | 2.52 | 4.65 | 7109 | inactive |
| CG18249 | SID104195110 | 7.26 | 8.03 | 6900 | inactive |
| CG31021 | SID104201822 | 3.65 | 8.82 | 5779 | inactive |
| mira (miranda) | SID104196790 | 5.25 | 2.56 | 6672 | inactive |
| mira (miranda) | SID104205381 | 5.53 | 7.36 | 5845 | inactive |
| CG13920 | SID104188181 | 21.4 | 0.65 | 2728 | inactive |
| CG4022 | SID104190187 | 2.6 | 2.56 | 6039 | inactive |
| CG4022 | SID104205861 | 5.93 | 11.8 | 6022 | inactive |
| CG7381 | SID104196030 | 15.5 | 10.8 | 6787 | inactive |
| CG7381 | SID104207556 | 13.1 | 28 | 6143 | inactive |
| CG11437 | SID104191451 | 6.04 | 5.26 | 6690 | inactive |
| CG30033 | SID104203425 | 1.71 | 2.82 | 6437 | inactive |
| EMC4 (ER membrane protein complex subunit 4) | SID104191430 | 7.52 | 8.26 | 6438 | inactive |
| EMC4 (ER membrane protein complex subunit 4) | SID104208196 | 22.3 | 1.35 | 5483 | inactive |
| CG11768 | SID104202576 | 1.67 | 9.95 | 6394 | inactive |
| CG11768 | SID104208174 | – | 17.6 | 323 | inactive |
| RpS24 (Ribosomal protein S24) | SID104184206 | 3.88 | 1.79 | 6216 | inactive |
| RpS24 (Ribosomal protein S24) | SID104206956 | 8.15 | 8.59 | 1117 | inactive |
| CG17597 | SID104182422 | 19.5 | 10.4 | 6468 | inactive |
| CG17597 | SID104203398 | 8.91 | 9.26 | 6093 | inactive |
| CG13667 | SID104189820 | 6.21 | 6.11 | 6248 | inactive |
| shrb (shrub) | SID104186853 | 3.53 | 6.31 | 4198 | inactive |
| ems (empty spiracles) | SID104203590 | 2.51 | 1.62 | 5935 | inactive |
| Flad1 (Flavin adenine dinucleotide synthetase 1) | SID104199690 | 1.41 | 6.52 | 6610 | inactive |
| CG14326 | SID104194597 | 1.43 | 4.78 | 6977 | inactive |
| CG14326 | SID104206613 | 3.89 | 28 | 6404 | inactive |
| CG16779 | SID104194945 | 1.69 | 18.3 | 7031 | inactive |
| CG15404 | SID104180210 | 7.51 | 4.46 | 6521 | inactive |
| Su(var)205 (Suppressor of variegation 205) | SID104183238 | 3.31 | 7.78 | 6105 | inactive |
| Cont (Contactin) | SID104191941 | 10.1 | 7.4 | 5949 | inactive |
| SmD2 (Small ribonucleoprotein particle protein SmD2) | SID104192328 | 9.56 | 28.9 | 837 | inactive |
| SmD2 (Small ribonucleoprotein particle protein SmD2) | SID104207247 | 2.83 | – | 1025 | inactive |
